Columns and labels:
[1] = target: DotB (VirB11-related) ATPase (L. pneumophila (endogenous in strains derived from LP01 and LP02)); assay: cryo-EM structure
cryo-EM structure = target: the molecule itself; assay: cryo-EM structure

DotB (VirB11-related) ATPase (enzyme)
stoichiometry N [1]: 6

B1: DotO (VirB4-related) ATPase (enzyme)
chain: MANWSESFFEGVDTFFAWLSTSLKQTTESYIDLETADSPTVLVNHDGSLLSVLKIEGITGLAGPEEFERLVEGLANSFQAAMGRPGHALQVYFSHDKQNIVKMIKDIYDPAEATASRLELNLRDLFEERVNYLSQYCAEERVYFVLYTRPFNLASDQLKAANKAKMKMIKDTKAPPFKNTQTIFAAVPEIRDTHDAYVRAILNDLDALNVIAKLLEVHDAVHAIRMTGDPDYTADDWRATLPGDKIPVRELNNFEGDPSDLLWPPLSRQVLPRDAEIIDLRTVRVGDKIYASTYIDLFPKDVRPFISLFSRILPSHVPWKISFLLESEGLSTIKLKGLLAAILSFSSAQNRLISDSVNLLKYIQLNTDEAIVRLRVVATTWAPEGNIPLLRRRSSELVKAIEGWGSTDVSEICGDPFAGFVSSMLATTLNSSAVASVAPLSDVISMLPITRPASPWKTGALLFRTPDGKPWPFQPGSTEQTTWIDLVYARPGSGKSVLSNALNLALCLSGGLMRLPRIAIIDIGPSSSGLISLLKEALPASKRHLVAYHRLRMTPDYSINPFDTQLGCRYPTALERSFLVNFMTLLTTPLGAAKPYDGMADLAGMVVDELYKSMADEFNPTPYAPGIEEFIDGILEEIGFVRDAKSTWWEVTDALYSAGFVHEAMLAQRYAMPLLADAASICRTPSIEDLYEKITAPTGESLINAFSRMISSAVREYPILSRVTSFDIGDARVVSLDLDEVAKSGGDAADRQTAVMYMLARYVLARHYYLTEESLNNVPEQYKEYHKQRVLEIREDHKRIVYDEFHRTAKSSAVREQVIIDMREGRKWKVQISLLSQAVDDFDPVMIDFATAIYVMDAGPSQAVEKTSQIFGLSETAKIALRTRVHGPRQGGATFLAQFATKTGINVQLLTLTLGPVELWAFSTTAEDATVRNLLYRHLGPSEARRLLAALFPNGTVTKELEARLASMKQKVGLIEDDEREGMINQLVNDILDAYSKDPNVKSLPAKVG
stoichiometry N (cryo-EM structure): 12

Reference: paper PMC7029142, “Analysis of Dot/Icm Type IVB Secretion System Subassemblies by Cryoelectron Tomography Reveals Conformational Changes Induced by DotB Binding” (mBio, 2020)
